The exact form of at least one protein or probe is not confirmed. For some of these results: The comparison behind a weaker result is the experiment's own reference, which may not be listed here.

Series [1] deals with GST-rPfPuf2 (Plasmodium falciparum). Kind of series: competition with a labelled probe. The following applies: LightShift RNA EMSA binding buffer (salt, pH not given), 5% glycerol, 2 ug tRNA per 20 ul, RNase inhibitor, 2.5 nM RNA, 0.25-400 nM rPfPuf2, room temperature 20 min, recombinant protein, protein details: GST, label: biotin (unlabeled as competitor). In general terms: In EMSA bound probe runs differently from free probe, usually more slowly.

Series [2] shares this test system. Kind of series: EMSA. The following applies: LightShift RNA EMSA binding buffer (salt, pH not given), 5% glycerol, 2 ug tRNA per 20 ul, RNase inhibitor, 2.5 nM RNA, 0.25-400 nM rPfPuf2, room temperature 20 min; recombinant protein; protein details: GST; label: biotin (unlabeled as competitor).
[3] abbreviates: letters put together from the description.

On to “AUUAUUUUGUUGUCGAAAAUUGUACAUAAGCC [hb NRE]”, for which the binding result in series [1] was “binds more weakly”; in series [2], “binds”.

Turning to “GAAAUGUUCUUUUGUAAUUAUAUUUUGUUCGAUGAUUC [pfs28 RNA1]”, the binding result in series [1] (setting [3]) was “binds”.

With “UUCUCAUUUGUUAAUAAAUUGUUGUGAAAACAA [pfs25 RNA1]”, the binding result in series [1] (setting [3]) is on record as “binds”.
